Anti-infective test results gathered from many reports (values: NIAID ChemDB through PubChem).

Shared fields: cytotoxicity tests; cell line: H9; read-out: CC50

Neighbouring rows are from separate reports.

smiles | read by | result
CC1(C)S[C@H]([C@H](NC(=O)Cc2ccccc2)C(=O)NCc2ccccc2)N[C@H]1C(=O)NCCNC(=O)[C@@H]1N[C@@H]([C@H](NC(=O)Cc2ccccc2)C(=O)NCc2ccccc2)SC1(C)C | - | >110 µM
O=C(O[C@@H]1Cc2c(O)cc(O)cc2O[C@@H]1c1ccc(O)cc1)c1cc(O)c(O)c(O)c1 | - | 50 µg/mL
CCOc1ccc(Cc2c3cc(OCC)c(OCC)cc3cc[n+]2C)cc1OCC | - | 17.1 µg/mL
COc1c(C)c(O)c(C=O)c2c1C(O)C[C@@H](c1ccccc1)O2 | cell count | 24.2 µg/mL
CO[C@H]1O[C@@H](n2ccc(=O)[nH]c2=O)C[C@@H]1N=[N+]=[N-] | - | 370 µM
O=C(O[C@@H]1O[C@@H]2COC(=O)c3cc(O)c(O)c(O)c3-c3c(cc(O)c(O)c3O)C(=O)O[C@H]([C@H]1OC(=O)c1cc(O)c(O)c(O)c1)[C@@H]2OC(=O)c1cc(O)c(O)c(O)c1)c1cc(O)c(O)c(O)c1 | - | 34 µM
COc1cc(Cc2c3cc(OC)c(OC)cc3cc(C)[n+]2C)c(C(C)=O)cc1OC | - | 20.6 µg/mL
COc1c(C)c(O)c2c(c1C=O)O[C@@H](C)[C@H](C(=O)c1ccccc1)C2=O | cell count | 1.89 µg/mL
C[C@@H]1O[C@@H](OC[C@H]2O[C@@H](Oc3c(-c4ccc(O)c(O)c4)oc4cc(O)cc(O)c4c3=O)[C@H](O)[C@@H](O)[C@@H]2O)[C@H](O)[C@H](O)[C@H]1O | cell count | >100 µg/mL
CC(C)(C)OC(=O)NCCC(=O)Nc1cccc(C(c2c(O)c3c(oc2=O)CCCCCC3)C2CC2)c1 | - | >100 µM
CCN1c2ncccc2-c2cnc(C)n2-c2ccc(-c3cn[nH]c3)nc21 | - | >100 µM
CC(=O)N[C@H]1[C@H]([C@H](OS(=O)(=O)O)[C@@H](COS(=O)(=O)O)OS(=O)(=O)O)O[C@@](OCCCCCCCCCCCCCCCC(=O)O)(C(=O)O)C[C@@H]1OS(=O)(=O)O | MTT | >200 µM
COc1cc(CO)c(Cc2nccc3cc(OC)c(OC)cc23)cc1OC | - | 18.8 µg/mL
Cc1cn([C@H]2C[C@H](N=[N+]=[N-])[C@@H](CO)O2)c(=O)[nH]c1=O | - | >20 µM
COc1c(O)c(Cl)c2c(c1OC)-c1c(c(Cl)c(O)c(OC)c1OC)C[C@H](C)[C@H](C)C2 | - | 28.5 µM
COc1cc(-c2cc(=O)c3c(O)c(OC)c(OC)cc3o2)c(O)cc1O | - | <100 µg/mL
Cc1cn([C@H]2C[C@H](N=[N+]=[N-])[C@@H](CO)O2)c(=O)[nH]c1=O | - | 500 µg/mL
O=C1CC2OC(O)C3OC(=O)c4cc(O)c(O)c(O)c4-c4c(cc(O)c(O)c4O)C(=O)OC3C2OC(=O)c2cc(O)c(O)c(O)c2-c2c1cc(O)c(O)c2O | - | 15 µM
Cc1cn([C@H]2C[C@H](N=[N+]=[N-])[C@@H](CO)O2)c(=O)[nH]c1=O | cell count | 500 µg/mL
CCCC1NCCc2cc(O)c(O)cc21 | - | 21.8 µg/mL
O=C(O[C@@H]1Cc2c(O)cc(O)cc2O[C@@H]1c1cc(O)c(=O)c2c(O)c(O)cc([C@H]3Oc4cc(O)cc(O)c4C[C@H]3OC(=O)c3cc(O)c(O)c(O)c3)c2c1)c1cc(O)c(O)c(O)c1 | - | 48 µg/mL
CO[C@@H]1C[C@@H](C[C@H]2CC[C@H](C)[C@H]([C@@H](C)C(=O)O)O2)O[C@]2(O[C@](C)([C@H]3CC[C@@](C)([C@@H]4O[C@@H]([C@H]5O[C@@](O)(CO)[C@H](C)C[C@@H]5C)C[C@@H]4C)O3)C[C@H]2C)[C@@H]1C | - | 14.46 µg/mL
COC1=C(C)C(O)=C(C(=O)/C=C/c2ccccc2)C(=O)C1(C)C | cell count | 2.29 µg/mL
CC[C@@H]1O[C@@H]([C@]2(C)C[C@@H](C)[C@](O)([C@]3(C)CC[C@@H]([C@@H](O)[C@]4(O)O[C@H](C[C@@]5(O)O[C@@H]([C@@H](C)[C@H](O)C[C@@H]6O[C@H]([C@@H](C)C(=O)O)[C@@H](C)C[C@H]6C)CC[C@@H]5C)[C@@H](C)C[C@H]4C)O3)O2)CC[C@@]1(C)O | - | 13.5 µg/mL
O=C(OC1[C@H](O)CC(OC(=O)c2cc(O)c(O)c(O)c2)(C(=O)O)C[C@H]1O)c1cc(O)c(O)c(O)c1 | - | 45 µM
CCCc1nccc2cc(O)c(O)cc12 | - | 2.23 µg/mL
CC[C@@H](O)[C@]1(C)C[C@H](C)[C@@](O)([C@H]2C[C@H](C)[C@H]([C@]3(C)CC[C@H]([C@@H]4CC[C@@]5(O[C@H]([C@@H](C)[C@@H](OC)[C@H](C)C(=O)O)[C@H](C)[C@@H](OC)[C@H]5C)O4)O3)O2)O1 | - | 18.62 µg/mL
CCCCCCCCCCCCCCCCCCCCCCOCC(C)(COCCCCCCCCCCCCCCCCCCCCCC)CO[C@]1(C(=O)O)C[C@H](OS(=O)(=O)O)[C@@H](NC(C)=O)[C@H]([C@H](OS(=O)(=O)O)[C@@H](COS(=O)(=O)O)OS(=O)(=O)O)O1 | MTT | >200 µM
COc1cc2c(cc1O)[C@@H](Cc1ccc(O)cc1)N(C)CC2 | cell count | 1.45 µg/mL
CCOc1ccc(Cc2[nH+]c(C)cc3cc(OCC)c(OCC)cc23)cc1OCC | - | >100 µg/mL
O=C(OCC1O[C@@H](O)C(O)(COC(=O)c2cc(O)c(O)c(O)c2)C1O)c1cc(O)c(O)c(O)c1 | - | 45 µM
CC(=O)O[C@@H]1[C@H](OC(=O)C23CCC(C)(C(=O)O2)C3(C)C)c2c(ccc3c(=O)cc(-c4ccccc4)oc23)OC1(C)C | - | >44.6 µM
COc1c2c(cc3c1-c1c(cc4c(c1OC)OCO4)C(OC(=O)c1ccccc1)[C@@](C)(O)[C@@H](C)C3)OCO2 | - | 25.3 µg/mL
CCCCCCCCCCCCCCOC[C@H](CO[C@]1(C(=O)O)C[C@H](O)[C@@H](NC(C)=O)[C@H]([C@H](O)[C@H](O)CO)O1)OCCCCCCCCCCCCCC | MTT | <100 µM
COc1c(C)c(O)c2c(c1C)OC(c1ccccc1)CC2=O | cell count | 1.77 µg/mL
CCC1NCCc2cc(O)c(O)cc21 | - | 20.9 µg/mL
Oc1cc(O)c2c(c1)O[C@H](c1cc(O)c(O)c(O)c1)[C@@H](O)[C@@H]2c1c(O)cc(O)c2c1O[C@H](c1cc(O)c(O)c(O)c1)[C@H](O)C2 | - | 18 µg/mL
CC[C@@H](C(=O)[C@@H](C)[C@@H](O)[C@H](C)CCc1ccc(C)c(O)c1C(=O)O)[C@H]1O[C@](CC)([C@H]2CC[C@](O)(CC)[C@H](C)O2)C[C@@H]1C | - | 48.8 µg/mL
CC1(C)Oc2ccc3c(=O)cc(-c4ccccc4)oc3c2[C@@H](OC(=O)C23CCC(C)(C(=O)O2)C3(C)C)[C@H]1OC(=O)C12CCC(C)(C(=O)O1)C2(C)C | - | >35.82 µM
CC(C)(C)OC(=O)N[C@@H](Cc1ccccc1)[C@@H](O)C[C@@H](Cc1ccc(OCP(=O)(OCc2ccccc2)OCc2ccccc2)cc1)C(=O)N[C@H]1c2ccccc2C[C@H]1O | - | >200 µM
COc1cc2c(cc1O)[C@@H](Cc1ccc(O)cc1)NCC2 | cell count | >100 µg/mL
CC(C)(C)OC(=O)N[C@@H](Cc1ccccc1)[C@@H](O)C[C@@H](Cc1ccc(OCP(=O)(O)O)cc1)C(=O)N[C@H]1c2ccccc2C[C@H]1O | - | >200 µM
O=C1NC(=O)C(c2ccccc2)(c2ccccc2)N1 | - | >40 µg/mL
Nc1ccn([C@@H]2O[C@H](CO)C[C@H]2F)c(=O)n1 | - | 90 µg/mL
COc1cc2c(cc1OC)[C@@H](Cc1ccc(O)c(Oc3cc4c(cc3OC)CCN(C)[C@@H]4Cc3ccc(O)cc3)c1)N(C)CC2 | cell count | 7.97 µg/mL
CC1(C)Oc2ccc3ccc(=O)oc3c2[C@@H](OC(=O)C23CCC(C)(C(=O)O2)C3(C)C)[C@H]1OC(=O)C12CCC(C)(C(=O)O1)C2(C)C | - | >16.1 µM
COc1c(O)c(Br)c2c(c1OC)-c1c(c(Br)c(O)c(OC)c1OC)C[C@H](C)[C@H](C)C2 | - | 24 µM
Cc1c(O)c(C)c2c(c1O)C(=O)C[C@@H](c1ccccc1)O2 | cell count | 20.8 µg/mL
Nc1ccn([C@H]2CC[C@@H](CO)O2)c(=O)n1 | - | >100 µM
CCCCCCCCCCCCCCCCCCCCCCOC[C@H](CO[C@]1(C(=O)O)C[C@H](OS(=O)(=O)O)[C@@H](NC(C)=O)[C@H]([C@H](OS(=O)(=O)O)[C@@H](COS(=O)(=O)O)OS(=O)(=O)O)O1)OCCCCCCCCCCCCCCCCCCCCCC | - | >200 µM
CCOC(=O)COc1ccc(C[C@H](C[C@H](O)[C@H](Cc2ccccc2)NC(=O)OC(C)(C)C)C(=O)N[C@H]2c3ccccc3C[C@H]2O)cc1 | - | 140 µM
COc1cc2c(cc1OCc1ccccc1)C(Cc1ccc(Cl)cc1)N(Cc1ccccc1)CC2 | cell count | 11.9 µg/mL
O=C(O)P(=O)(O)O | - | >1000 µM
CC(C)(C)NC(=O)[C@@H]1C[C@@H]2CCCC[C@@H]2CN1C[C@@H](O)[C@H](Cc1ccccc1)NC(=O)[C@H](CC(N)=O)NC(=O)c1ccc2ccccc2n1 | - | 20 µg/mL
C=C(c1ccc(OC)c(OC)c1)c1c2cc(OC)c(OC)cc2cc[n+]1C | - | 17.4 µg/mL
Cc1cn([C@H]2C[C@H](F)[C@@H](CO)O2)c(=O)[nH]c1=O | - | 50 µM
Cc1cn([C@H]2C[C@H](N=[N+]=[N-])[C@@H](CO)O2)c(=O)[nH]c1=O | MTT | >100 µM
Cc1c(O)c(C=O)c(O)c2c1O[C@H](c1ccccc1)CC2=O | cell count | 104 µg/mL
COc1c2c(cc3c1-c1c(cc4c(c1OC)OCO4)C(OC(=O)c1ccccc1)[C@H](C)[C@@H](C)C3)OCO2 | - | 41 µg/mL
CCCCCCCCCCCCCCCC(=O)Nc1ccn([C@H]2C[C@H](OP(=O)(O)OC[C@H]3O[C@@H](n4cc(C)c(=O)[nH]c4=O)C[C@@H]3N=[N+]=[N-])[C@@H](CO)O2)c(=O)n1 | - | 20 µM
O=C1OCC2OC(=O)c3cc(O)c(O)c(O)c3-c3c(O)c(O)c(O)c4c3C(=O)OC(C2OC(=O)c2cc(O)c(O)c(O)c2-c2c1cc(O)c(O)c2O)C1OC(=O)c2c-4c(O)c(O)c(O)c2[C@@H]1O | - | 15 µM
Nc1ncnc2c1ncn2[C@H]1C=C(F)[C@@H](CO)O1 | - | 50 µg/mL
COc1cc2c(cc1OC)C(Cc1ccc(O)cc1)N(C)CC2 | cell count | 1.77 µg/mL
O=C(O[C@@H]1[C@@H](c2c(O)cc(O)c3c2O[C@H](c2cc(O)c(O)c(O)c2)[C@H](OC(=O)c2cc(O)c(O)c(O)c2)C3)c2c(O)cc(O)cc2O[C@@H]1c1cc(O)c(O)c(O)c1)c1cc(O)c(O)c(O)c1 | - | 40 µg/mL
Cc1cc(=O)c2ccc3c(c2o1)[C@@H](OC(=O)C12CCC(C)(C(=O)O1)C2(C)C)[C@@H](OC(=O)C12CCC(C)(C(=O)O1)C2(C)C)C(C)(C)O3 | - | 27.3 µM
Oc1cc(O)c2c(c1)O[C@H](c1cc(O)c(O)c(O)c1)[C@H](O)C2 | - | 1.8 µg/mL
Nc1nc(N)c2ncn([C@@H]3O[C@H](CO)[C@@H](F)[C@H]3O)c2n1 | - | 60 µg/mL

A second listing of 5 rows from above:

smiles	read by	result
Oc1cc(O)c2c(c1)O[C@H](c1cc(O)c(O)c(O)c1)[C@@H](O)[C@@H]2c1c(O)cc(O)c2c1O[C@H](c1cc(O)c(O)c(O)c1)[C@H](O)C2	-	18 µg/mL
CCOC(=O)COc1ccc(C[C@H](C[C@H](O)[C@H](Cc2ccccc2)NC(=O)OC(C)(C)C)C(=O)N[C@H]2c3ccccc3C[C@H]2O)cc1	-	140 µM
COc1c(O)c(Br)c2c(c1OC)-c1c(c(Br)c(O)c(OC)c1OC)C[C@H](C)[C@H](C)C2	-	24 µM
COc1cc2c(cc1OC)C(Cc1ccc(O)cc1)N(C)CC2	cell count	1.77 µg/mL
O=C(O[C@@H]1Cc2c(O)cc(O)cc2O[C@@H]1c1ccc(O)cc1)c1cc(O)c(O)c(O)c1	-	50 µg/mL

Blank or dashed fields: not listed here. CCn is the concentration with n% toxicity to the cells.